# Measured values published in publication PMC12319226 (Frontiers in Bioinformatics, 2025).
# T1: fHbp m001927 (Neisseria meningitidis; fHbp …, chimera)
# T1 chain: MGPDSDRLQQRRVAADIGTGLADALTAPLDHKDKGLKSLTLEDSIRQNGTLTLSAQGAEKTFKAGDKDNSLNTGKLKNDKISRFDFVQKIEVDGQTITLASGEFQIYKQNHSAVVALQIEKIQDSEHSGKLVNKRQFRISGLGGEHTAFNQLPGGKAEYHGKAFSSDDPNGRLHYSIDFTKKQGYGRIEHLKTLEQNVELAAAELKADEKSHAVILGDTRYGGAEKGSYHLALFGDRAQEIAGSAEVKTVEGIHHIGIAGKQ
# T2: fHbp m001928 (Neisseria meningitidis; fHbp …, chimera)
# T2 chain: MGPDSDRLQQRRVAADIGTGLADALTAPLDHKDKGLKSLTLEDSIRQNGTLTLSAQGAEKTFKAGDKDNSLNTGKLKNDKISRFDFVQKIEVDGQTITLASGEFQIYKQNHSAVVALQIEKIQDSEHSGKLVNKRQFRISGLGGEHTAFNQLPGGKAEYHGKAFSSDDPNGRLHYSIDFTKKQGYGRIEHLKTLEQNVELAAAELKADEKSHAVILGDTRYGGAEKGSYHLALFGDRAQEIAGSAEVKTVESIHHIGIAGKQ
# T3: fHbp m001929 (Neisseria meningitidis; fHbp …, chimera)
# T3 chain: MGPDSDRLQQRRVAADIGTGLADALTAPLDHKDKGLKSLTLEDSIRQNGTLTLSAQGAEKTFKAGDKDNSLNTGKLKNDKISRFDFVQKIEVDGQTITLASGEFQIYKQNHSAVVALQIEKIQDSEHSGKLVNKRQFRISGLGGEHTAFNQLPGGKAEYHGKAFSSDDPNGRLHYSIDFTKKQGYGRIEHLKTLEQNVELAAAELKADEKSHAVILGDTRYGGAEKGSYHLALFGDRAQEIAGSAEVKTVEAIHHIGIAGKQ
# T4: fHbp m001932 (Neisseria meningitidis; fHbp …, chimera)
# T4 chain: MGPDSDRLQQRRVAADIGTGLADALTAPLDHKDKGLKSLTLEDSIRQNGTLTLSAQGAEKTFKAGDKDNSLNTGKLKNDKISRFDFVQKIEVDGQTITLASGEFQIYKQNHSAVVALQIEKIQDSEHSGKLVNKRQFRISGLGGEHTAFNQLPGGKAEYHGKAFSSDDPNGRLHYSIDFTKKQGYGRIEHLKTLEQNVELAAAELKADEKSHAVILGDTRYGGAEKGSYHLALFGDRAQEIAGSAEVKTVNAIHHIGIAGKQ
# T5: fHbp m001935 (Neisseria meningitidis; fHbp …, chimera)
# T5 chain: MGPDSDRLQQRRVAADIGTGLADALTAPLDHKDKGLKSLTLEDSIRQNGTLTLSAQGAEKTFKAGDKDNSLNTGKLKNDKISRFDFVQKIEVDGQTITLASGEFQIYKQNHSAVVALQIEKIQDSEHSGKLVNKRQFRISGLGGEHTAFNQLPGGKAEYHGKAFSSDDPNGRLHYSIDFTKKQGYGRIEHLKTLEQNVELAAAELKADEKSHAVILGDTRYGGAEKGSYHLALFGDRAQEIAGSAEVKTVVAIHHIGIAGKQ
# T6: fHbp m002335 (Neisseria meningitidis; fHbp …, chimera)
# T6 chain: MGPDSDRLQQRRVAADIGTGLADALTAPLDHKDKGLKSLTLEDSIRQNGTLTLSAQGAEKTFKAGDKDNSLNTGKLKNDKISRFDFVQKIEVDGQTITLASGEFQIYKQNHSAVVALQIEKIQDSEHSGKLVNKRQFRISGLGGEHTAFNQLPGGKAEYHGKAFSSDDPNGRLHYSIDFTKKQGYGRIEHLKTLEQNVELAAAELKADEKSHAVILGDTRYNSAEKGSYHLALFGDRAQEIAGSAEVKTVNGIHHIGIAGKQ
# T7: fHbp m002415 (Neisseria meningitidis, designed fHbp …, chimera)
# T7 chain: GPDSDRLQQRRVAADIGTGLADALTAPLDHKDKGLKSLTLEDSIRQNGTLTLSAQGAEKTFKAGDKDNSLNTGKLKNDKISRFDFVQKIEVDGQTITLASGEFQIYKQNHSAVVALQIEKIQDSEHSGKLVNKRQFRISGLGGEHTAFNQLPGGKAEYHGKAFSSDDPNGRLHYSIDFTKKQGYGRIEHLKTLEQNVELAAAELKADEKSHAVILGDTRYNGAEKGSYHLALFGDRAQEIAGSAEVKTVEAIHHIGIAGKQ
# T8: fHbp m002416 (Neisseria meningitidis, designed fHbp …, chimera)
# T8 construct: also called fHbp 2,416; Round 2 best mutant
# T8 chain: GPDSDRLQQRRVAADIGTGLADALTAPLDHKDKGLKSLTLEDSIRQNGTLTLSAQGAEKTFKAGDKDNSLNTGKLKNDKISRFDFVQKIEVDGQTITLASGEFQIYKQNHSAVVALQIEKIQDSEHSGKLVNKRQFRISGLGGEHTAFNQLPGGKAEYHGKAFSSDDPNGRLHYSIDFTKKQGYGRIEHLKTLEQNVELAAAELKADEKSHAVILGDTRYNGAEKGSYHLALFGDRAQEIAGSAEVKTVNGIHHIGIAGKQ
# T9: fHbp m002421 (Neisseria meningitidis, designed fHbp …, point mutant)
# T9 chain: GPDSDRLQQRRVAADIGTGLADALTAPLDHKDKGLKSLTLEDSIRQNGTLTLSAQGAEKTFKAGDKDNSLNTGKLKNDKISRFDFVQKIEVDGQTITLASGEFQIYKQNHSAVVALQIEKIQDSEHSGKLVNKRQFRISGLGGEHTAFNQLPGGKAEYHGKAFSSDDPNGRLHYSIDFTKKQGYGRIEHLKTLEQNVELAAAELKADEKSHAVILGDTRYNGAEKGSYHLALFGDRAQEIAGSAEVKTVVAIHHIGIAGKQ
# T10: fHbp mutant 0014 (Neisseria meningitidis, fHbp v1.1 mutant, point mutant)
# T10 chain: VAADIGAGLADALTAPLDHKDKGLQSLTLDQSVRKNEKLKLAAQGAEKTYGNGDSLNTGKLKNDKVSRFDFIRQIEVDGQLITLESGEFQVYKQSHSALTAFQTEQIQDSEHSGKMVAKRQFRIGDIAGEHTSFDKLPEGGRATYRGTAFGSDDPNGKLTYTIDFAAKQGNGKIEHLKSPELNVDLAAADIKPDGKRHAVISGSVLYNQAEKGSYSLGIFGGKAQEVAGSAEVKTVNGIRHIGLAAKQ
# T11: fHbp mutant 0017 (Neisseria meningitidis, fHbp v1.1 mutant, point mutant)
# T11 chain: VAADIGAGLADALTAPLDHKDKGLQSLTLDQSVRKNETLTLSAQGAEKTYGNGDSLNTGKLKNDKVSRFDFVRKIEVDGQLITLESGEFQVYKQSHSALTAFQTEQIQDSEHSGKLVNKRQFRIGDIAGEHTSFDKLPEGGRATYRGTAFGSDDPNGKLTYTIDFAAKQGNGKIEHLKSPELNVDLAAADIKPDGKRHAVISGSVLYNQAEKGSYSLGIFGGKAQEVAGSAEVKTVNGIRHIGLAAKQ
# T12: fHbp mutant 0018 (Neisseria meningitidis, fHbp v1.1 mutant, point mutant)
# T12 chain: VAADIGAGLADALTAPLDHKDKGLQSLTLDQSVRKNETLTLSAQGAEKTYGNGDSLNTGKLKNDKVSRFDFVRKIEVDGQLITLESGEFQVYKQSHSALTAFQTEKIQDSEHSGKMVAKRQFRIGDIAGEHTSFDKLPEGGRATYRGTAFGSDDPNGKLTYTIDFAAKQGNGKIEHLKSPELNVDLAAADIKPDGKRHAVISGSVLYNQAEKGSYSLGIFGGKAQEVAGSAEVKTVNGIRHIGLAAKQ
# T13: fHbp m000019 (Neisseria meningitidis, fHbp v1.1 …, point mutant)
# T13 chain: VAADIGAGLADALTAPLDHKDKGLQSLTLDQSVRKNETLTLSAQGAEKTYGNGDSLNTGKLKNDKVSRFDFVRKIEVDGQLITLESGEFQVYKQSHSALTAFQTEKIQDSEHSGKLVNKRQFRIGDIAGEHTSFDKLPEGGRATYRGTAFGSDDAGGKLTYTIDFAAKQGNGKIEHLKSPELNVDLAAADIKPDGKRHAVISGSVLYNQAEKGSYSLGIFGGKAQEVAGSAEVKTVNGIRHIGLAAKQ
# T14: fHbp mutant 0015 (Neisseria meningitidis, fHbp v1.1 mutant, point mutant)
# T14 chain: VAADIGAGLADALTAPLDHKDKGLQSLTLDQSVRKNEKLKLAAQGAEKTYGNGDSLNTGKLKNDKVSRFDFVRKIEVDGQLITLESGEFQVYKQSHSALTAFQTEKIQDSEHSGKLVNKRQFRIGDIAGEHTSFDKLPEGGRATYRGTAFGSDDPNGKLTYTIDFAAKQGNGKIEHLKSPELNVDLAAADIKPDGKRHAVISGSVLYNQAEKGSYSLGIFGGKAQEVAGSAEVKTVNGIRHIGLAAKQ
# Columns and labels:
# Test in all cases: BLI
# Conditions in all cases: both partners purified
# [1] = biological target: T1, fHbp m001927
# [2] = biological target: T2, fHbp m001928
# [3] = biological target: T3, fHbp m001929
# [4] = biological target: T4, fHbp m001932
# [5] = biological target: T5, fHbp m001935
# [6] = biological target: T6, fHbp m002335
# [7] = biological target: T7, fHbp m002415
# [8] = biological target: T8, fHbp m002416
# [9] = biological target: T9, fHbp m002421
# [10] = biological target: T10, fHbp mutant 0014
# [11] = biological target: T11, fHbp mutant 0017
# [12] = biological target: T12, fHbp mutant 0018
# [13] = biological target: T13, fHbp m000019
# [14] = biological target: T14, fHbp mutant 0015
Binder,koff [1] [s⁻¹],kon [2] [M⁻¹ s⁻¹],kon [3] [M⁻¹ s⁻¹],koff [4] [s⁻¹],koff [5] [s⁻¹],kon [6] [M⁻¹ s⁻¹],koff [7] [s⁻¹],koff [8] [s⁻¹],kon [9] [M⁻¹ s⁻¹],koff [10] [s⁻¹],kon [11] [M⁻¹ s⁻¹],kon [12] [M⁻¹ s⁻¹],kon [13] [M⁻¹ s⁻¹],koff [14] [s⁻¹],kon [14] [M⁻¹ s⁻¹]
"chimeric antibody hJAR5 (antibody, V domains shown, also called hJAR5-2; humanized JAR5; source: Expi293, purified (MabSelect SuRe, SEC); copies: 2 + 2) VH: QVQMQQPGAELVKPGASVKLSCKASGYTFISYWMHWVKQRPGRGLEWIGRIAPDTGIIYYNEKFKNKATLTVDTPSSTAYMQLNSLTSEDSAVYYCARYLKYDGSTYRFDYWGQGTTLTVSS VL: DIVMTQAAPSVPVTPGESVSISCRSSKSLLHSNGNTYLFWFLQRPGQSPQLLIYRMSNLASGVPDRFSGSGSGTSFTLRISRVEAEDVGVYYCMQHLEYPYTFGGGTKLEIK",0.000372,402800 ± 1730,301000 ± 5290,0.000936,0.000223,357500 ± 1540,0.000261,0.000278,1.246e+06 ± 5320,–,–,–,–,–,–
"mAb JAR5 (mouse) (antibody, V domains shown, source: Expi293, purified (MabSelect SuRe, SEC); copies: 2 + 2) VH: QVQMQQPGAELVKPGASVKLSCKASGYTFISYWMHWVKQRPGRGLEWIGRIAPDTGIIYYNEKFKNKATLTVDTPSSTAYMQLNSLTSEDSAVYYCARYLKYDGSTYRFDYWGQGTTLTVSS VL: DIVMTQAAPSVPVTPGESVSISCRSSKSLLHSNGNTYLFWFLQRPGQSPQLLIYRMSNLASGVPDRFSGSGSGTSFTLRISRVEAEDVGVYYCMQHLEYPYTFGGGTKLEIK",–,–,–,–,–,–,–,–,–,0.000279,674200 ± 6520,689400 ± 5340,937000 ± 4100,0.000161,769000 ± 9300
